# Measurements published in PMC6843921 (Biomolecules, 2019).
# Tested on: O=C(O)CN(CCN(CC(=O)O)CC(=O)O)CC(=O)O
# Assay: purified protein, by the assay type
# Conditions: other: dUTP hydrolysis, 300 µM EDTA, no Mg^2+, 20 °C, pH 7.5
substance,measurement,value
mtDUT (Mycobacterium tuberculosis H37Rv),Km,10.04 ± 0.50 µM
same,kcat,0.71 s⁻¹
